Results from the supplement of paper PMC9931576.
Human monoclonal antibodies against the spike receptor-binding domain (heavy:light variable regions). IC50 against pseudoviruses bearing the spike of naturally observed variants; lower = stronger; >10 µg/ml means not reached at the top dose. No active / inactive call. The stated detection limit is 0.0005 µg/ml; values near or below 0.001 µg/ml lie at the floor of the assay.

B1: BD57-020 (protein)
chain 1: QVQLVESGGGVVQPGRSLRLSCAASGFTFRIYAMHWVRQAPGKGLEWVSVIWNDGTKKNYADSVKGRFTISRDNSQKTLYLQMNSLRAEDTAVYYCAREGIAAGGNSVDAFDIWGQGTTVTVSS
chain 2: DIQMTQSPSSLSASVGDRVTITCRASQSIGMFLNWYQQKPGKAPKVLIYAASTLQGGVPSRFSGSGSGTVFTLTISSLQPEDFAIYYCQQSYGASYTFGQGTKLEIK
B2: BD57-082 (protein)
chain 1: QITLKESGPTLVKPTQTLTLTCTFSGLSLTTSGVGVAWIRQPPGKALEWLALIYWDDDERYSPSLQSRLAITKDTSKNHVVLTMTNMDPVDTATYYCALHRIAEVFDYWGQGALVTVSS
chain 2: QSALTQPRSVSGSPGQSVTISCTATSSDVGVYNYVSWYQQHPGKAPKLMIYEVNKRPSGVPDRFSGSKSGNTASLSISGLQAEDEADYYCCSYTDKSVVFGGGTKLTVL
B3: BD57-024 (protein)
chain 1: EVQLVESGGGLIQPGGSLRLSCAVSGLTVSSNYMSWVRQAPGKGLEWVSTIFSGGSTFYADSVKGRFTISRDSSKNTLFFQMNSLRAEDTAVYYCARDLGMVGGTDQWGQGTLVTVSS
chain 2: EIVMTQSPATLSVSPGERATLSCRASQSVSSNLAWYQQKPGQAPRLLIYGASTRATGIPARFSGNGSGTEFTLTISSLQSEDFAVYYCQQYNNWPPGYTFGQGTKLEIK
B4: BD57-041 (protein)
chain 1: EVQLVESGGGLVQPGRSLRLSCAASGFTFEDYAMHWVRQVSGKGLEWVSGTTWNSGTIGYADSVKGRFIISRDNAKNSLYLQMNSLRVEDTALYYCVKDMYLVEEGIAVAEFAFDIWGQGTVVTVSS
chain 2: SYELTQPPSVSVSPGQTARITCSADALPKKYAYWYQQRPGQAPVLVIYKDSERPSGIPERFSGSSSGTRVTLTISGVQAEDEADYYCQSADSSGTDVVFGGGTKLTVL
B5: BD57-076 (protein)
chain 1: QVQLQESGPGLVRPSGTLSLTCAVSGGSISSIYWWTWVRQPPGKGLEWIGEIFHGGSTNYNPSLKSRVTISVDKSKNQFSLNLSSVTAADTAVYYCASVAQVAVVDYWGQGTLVTVSS
chain 2: QSALTQPASVSGSPGQSITISCTGTSSDVGRYNYISWYQQHPGKAPKLMIYDVSNRPSGVSNRFSGSKSGNTASLTISGLQAEDEADYYCSSYTSSNTPYVFGTGTKVTVL
B6: BD57-018 (protein)
chain 1: EVQLVESGGGLVQPGGSLRLSCAASGIIVSRNYMNWVRQAPGKGLEWVSVLYSGGSTFYADSVKGRFTISRDNSKNTLYLQMNSLRVEDTAVYYCARETTAVAGVGLFFDYWGQGTLVTVSS
chain 2: DIQMTQSPSSLSASVGDRVTITCQASQGISNYLNWYQQKPGKAPKLLIYDASNLQTGVPSRFSGSGSGTYFIFTISSLQPDDIATYYCQHYDNLPTRTFGQGTKVEIK
B7: BD57-098 (protein)
chain 1: QITLKESGPTLVKPTQTLTLTCTFSGFSLSTSGVGVAWIRQPPGKALEWLSLIYWDDDERYSPSLRSRLTITKDTSKNQVVLIMTSMDPVDTATYYCALHQPSRAGWSMGSWGQGTLVTVSS
chain 2: QSVLTQPPSVSAAPGQKVTISCSGSSSNIGDNFVSWYQQLPGAAPKLIIYDNNNRPSGIPDRFSASKSGTSATLGITGLQTGDEADYFCGTWESGGLSPWVFGGGTKLTVL
B8: BD57-092 (protein)
chain 1: QVQLVQSGAEVKKPGASVKVSCKASGYTFTTYSLHWVRQAPGQRLEWMGWIIPGNGNTEYSQKFQGRVTITRDTSASTAYMELTSLTSEDTAVYYCAREGSGWYSVYFDLWGRGTLVIVSS
chain 2: DIQMTQSPSSLSASIGDRVTITCRASQTISSYLNWYQQKPGKAPKLLIYAASSLQSGVPSRFSGSGSGTDFTLTISSLQPEDFATYYCQQSYYSPYTFGQGTKLEIK
B9: BD57-045 (protein)
chain 1: EVQLVESGGGLVQPGRSLRLSCAASGFNFHDYAMHWVRQVPGKGLEWVSSISWDSRSIDIADSVKGRFTISRDNGKNSLYLQMNSLSAEDTAFYYCVKSRGYETLTGADYFEYWGQGTLVSVSS
chain 2: EIVLTQSPGTLSLSPGERATLSCRASQSVTSTFLAWYQQKPGQAPRLLIYDASSRATGIPDRFSGSGSGTDFTLTISRLEPEDFAVYYCQQYGSSPSITFGQGTRLDIK
B10: BD57-017 (protein)
chain 1: QVQLVQSGAEVKKPGSSVKVSCKASGGTFSSYAINWVRQAPGQGLEWMGRIISMFDIANYAQNFQGRVTITADKSTSTAYMELNSLRSEDTAVYYCATTKFFYETGVGYYFDYWGQGTLVTVSS
chain 2: EIVLTQSPGTLSLSPGERATLSCRASQNLSSNYLAWYQQKPGQAPRLLIYGASSRATGIPDRFSGSGSGTDFILTISRLEPEDFAVYYCQQYDTSRTFGQGTKVEIK
B11: BD57-022 (protein)
chain 1: QMQLVQSGPEVKKPGTSVKVSCKASGFTFSSSAVQWVRQARGQRLEWIGWIVVGSGNTNYTQKFQERVTITRDMSTSTAYMELNSLRSEDTAVYYCAAPSCSRTICFDGFDMWGQGTMVTVSS
chain 2: EIVLTQSPGSLSLSPGERATLSCRASQSVRSSYLAWYQQKPGQAPRLLIYGASSRATGIPDRFSGSGSGTDFTLTISRLEPEDFVVYFCQQYGRSPWTFGQGTRVEIK
B12: BD57-077 (protein)
chain 1: QVQLVESGGGVVQTGRSLRLSCAASGFTFSRFAMHWVRQAPGKGLEWVAVISFDGNNKYYADSVKGRFTISRDNSMNALFLQMNSLRAEDTSVYYCAKGSYYGSGSYFNPLPNFDFWGQGTLVTVSS
chain 2: QSVLTQPPSASGTPGQRVTISCSGSTSNIGSNTVNWYQQLPGTAPKLLIYSYNQRPSGVPDRFSGSKSGTSASLAISGLQSEDEADYYCLAWDDSLYAWVFGGGTKLTVL

target: SARS-CoV-2 Omicron BA.1 spike pseudovirus; experiment: pseudovirus neutralization IC50; higher = weaker neutralization
Method: (§1)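 Single-round VSV luciferase pseudovirus mixed with antibody dilutions for 1 h and put on Huh-7 cells for about a day; IC50 from the dose curve.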

Going from B1 to B2, the “pseudovirus neutralization IC50” value falls from 1.02 µg/mL to 0.00622 µg/mL (160-fold).

Going from B3 to B4, the “pseudovirus neutralization IC50” value rises from 0.0103 µg/mL to 0.0308 µg/mL (3-fold).

Going from B5 to B6, the “pseudovirus neutralization IC50” value falls from greater than 10 µg/mL to 0.0824 µg/mL.

Compared with B7, B8 is 2100-fold higher in “pseudovirus neutralization IC50” value: 0.00354 µg/mL for the first, 7.56 µg/mL for the second.

Going from B9 to B10, the “pseudovirus neutralization IC50” value rises from 0.001 µg/mL to 0.0318 µg/mL (32-fold).

B11 and B12 are within 1.5-fold of each other in “pseudovirus neutralization IC50” value: 0.0463 µg/mL for the first, 0.0482 µg/mL for the second.

target: SARS-CoV-2 Omicron BA.2 spike pseudovirus; experiment: as above
Method: as §1

Compared with B1, B2 is 3900-fold lower in “pseudovirus neutralization IC50” value: 1.65 µg/mL for the first, 0.000425 µg/mL for the second.

Compared with B3, B4 is 4-fold higher in “pseudovirus neutralization IC50” value: 0.00809 µg/mL for the first, 0.0321 µg/mL for the second.

First: B5
Second: B6
The “pseudovirus neutralization IC50” value of the first is higher: greater than 10 µg/mL for the first, 0.141 µg/mL for the second.

Going from B7 to B8, the “pseudovirus neutralization IC50” value rises from 0.00244 µg/mL to 8.21 µg/mL (3400-fold).

Compared with B9, B10 is 130-fold higher in “pseudovirus neutralization IC50” value: 0.00063 µg/mL for the first, 0.0788 µg/mL for the second.

Going from B11 to B12, the “pseudovirus neutralization IC50” value falls from 0.0423 µg/mL to 0.0206 µg/mL (2.1-fold).

target: SARS-CoV-2 Omicron BA.2.75 spike pseudovirus; experiment: as above
Method: as §1

Compared with B1, B2 is 260-fold lower in “pseudovirus neutralization IC50” value: 1.15 µg/mL for the first, 0.00438 µg/mL for the second.

First: B3
Second: B4
The “pseudovirus neutralization IC50” value of the first is 2.9-fold lower: 0.00806 µg/mL for the first, 0.0231 µg/mL for the second.

B5 and B6 cannot be ordered by “pseudovirus neutralization IC50” value: greater than 10 µg/mL for the first, greater than 10 µg/mL for the second.

First: B7
Second: B8
The “pseudovirus neutralization IC50” value of the first is 5000-fold lower: 0.00154 µg/mL for the first, 7.66 µg/mL for the second.

Going from B9 to B10, the “pseudovirus neutralization IC50” value rises from 0.00109 µg/mL to 0.0109 µg/mL (10-fold).

Going from B11 to B12, the “pseudovirus neutralization IC50” value rises from 0.00108 µg/mL to 0.00468 µg/mL (4.3-fold).

target: SARS-CoV-2 Omicron BA.5 spike pseudovirus; experiment: as above
Method: as §1

Going from B1 to B2, the “pseudovirus neutralization IC50” value falls from 1.64 µg/mL to 0.000714 µg/mL (2300-fold).

Going from B3 to B4, the “pseudovirus neutralization IC50” value rises from 0.00908 µg/mL to 1.75 µg/mL (190-fold).

First: B5
Second: B6
The “pseudovirus neutralization IC50” value of the first is higher: greater than 10 µg/mL for the first, 0.478 µg/mL for the second.

First: B7
Second: B8
The “pseudovirus neutralization IC50” value of the first is 1900-fold lower: 0.00382 µg/mL for the first, 7.22 µg/mL for the second.

First: B9
Second: B10
The “pseudovirus neutralization IC50” value of the first is lower: 0.000716 µg/mL for the first, greater than 10 µg/mL for the second.

First: B11
Second: B12
The “pseudovirus neutralization IC50” value of the first is lower: 4.27 µg/mL for the first, greater than 10 µg/mL for the second.

target: SARS-CoV-2 Omicron BQ.1.1 spike pseudovirus; experiment: as above
Method: as §1

First: B1
Second: B2
The “pseudovirus neutralization IC50” value of the first is higher: greater than 10 µg/mL for the first, 2.9 µg/mL for the second.

B3 and B4 cannot be ordered by “pseudovirus neutralization IC50” value: greater than 10 µg/mL for the first, greater than 10 µg/mL for the second.

B5 and B6 cannot be ordered by “pseudovirus neutralization IC50” value: greater than 10 µg/mL for the first, greater than 10 µg/mL for the second.

B7 and B8 are within 1.5-fold of each other in “pseudovirus neutralization IC50” value: 4.36 µg/mL for the first, 3.6 µg/mL for the second.

Going from B9 to B10, the “pseudovirus neutralization IC50” value rises from 4.04 µg/mL to greater than 10 µg/mL.

B11 and B12 cannot be ordered by “pseudovirus neutralization IC50” value: greater than 10 µg/mL for the first, greater than 10 µg/mL for the second.

target: SARS-CoV-2 Omicron XBB spike pseudovirus; experiment: as above
Method: as §1

B1 and B2 cannot be ordered by “pseudovirus neutralization IC50” value: greater than 10 µg/mL for the first, greater than 10 µg/mL for the second.

B3 and B4 are within 1.5-fold of each other in “pseudovirus neutralization IC50” value: 0.925 µg/mL for the first, 0.635 µg/mL for the second.

B5 and B6 cannot be ordered by “pseudovirus neutralization IC50” value: greater than 10 µg/mL for the first, greater than 10 µg/mL for the second.

Going from B7 to B8, the “pseudovirus neutralization IC50” value rises from 1.4 µg/mL to greater than 10 µg/mL.

B9 and B10 cannot be ordered by “pseudovirus neutralization IC50” value: greater than 10 µg/mL for the first, greater than 10 µg/mL for the second.

B11 and B12 cannot be ordered by “pseudovirus neutralization IC50” value: greater than 10 µg/mL for the first, greater than 10 µg/mL for the second.

target: SARS-CoV-2 early D614G spike pseudovirus; experiment: as above
Method: as §1

First: B1
Second: B2
The “pseudovirus neutralization IC50” value of the first is 2.7-fold higher: 0.00421 µg/mL for the first, 0.00157 µg/mL for the second.

Going from B3 to B4, the “pseudovirus neutralization IC50” value rises from 0.00421 µg/mL to 0.0285 µg/mL (6.8-fold).

Going from B5 to B6, the “pseudovirus neutralization IC50” value falls from greater than 10 µg/mL to 0.0164 µg/mL.

Compared with B7, B8 is 300-fold higher in “pseudovirus neutralization IC50” value: 0.00237 µg/mL for the first, 0.702 µg/mL for the second.

Going from B9 to B10, the “pseudovirus neutralization IC50” value rises from 0.001 µg/mL to 0.006 µg/mL (6-fold).

First: B11
Second: B12
The “pseudovirus neutralization IC50” value of the first is 5.7-fold lower: 0.001 µg/mL for the first, 0.00568 µg/mL for the second.
